Compound potency records, mixed from different reports. Data source: NIAID ChemDB in PubChem.

Common to all: enzyme or target tests; species: Hepatitis C virus; protein: NS3/NS4A protease

Two numbers with a dash give a range or band. Conditions beyond the fields shown may differ between rows. ICn is the concentration giving n% inhibition. An empty or dashed field is not shown. Inhibition is in % at the dose shown (toxicity tests: loss of growth or viability).

SMILES	strain or isolate	dose	read-out	method	value
C=CC1CC1(NC(=O)[C@@H]1C[C@@H](OC(=O)Nc2cc(C(F)(F)F)ccc2-n2cccc2)CN1C(=O)[C@@H](NC(=O)OC(C)(C)C)C(C)(C)C)C(=O)NS(=O)(=O)C1CC1	BMS/H77C/J416S	-	IC50	-	<0.1 µM
C=C[C@H]1C[C@@]1(NC(=O)[C@@H]1C[C@@H](Oc2cc(C3CC3)nc3cc(OC)ccc23)CN1C(=O)[C@@H](NC(=O)OC(C)(C)C)C(C)(C)C)C(=O)NS(=O)(=O)C1(CC2CC2)CC1	BMS	-	IC50	-	<0.05 µM
C=C[C@@H]1C[C@]1(NC(=O)[C@@H]1C[C@@H](Oc2cc(-c3ccccc3)nc3cc(OC)ccc23)CN1C(=O)[C@@H](NC(=O)OC(C)(C)C)C(C)(C)C)C(=O)NS(=O)(=O)c1ccccc1	BMS	-	IC50	-	<0.05 µM
C=CC1CC1(NC(=O)[C@@H]1C[C@@H](OC(=O)Nc2c(C)nn(C)c2C)CN1C(=O)[C@@H](NC(=O)OC(C)(C)C)C(C)(C)C)C(=O)NS(=O)(=O)C1CC1	BMS/H77C/J416S	-	IC50	-	1–10 µM
C=C[C@@H]1C[C@]1(NC(=O)[C@@H]1C[C@@H](Oc2cc(-c3ccccc3)nc3cc(OC)ccc23)CN1C(=O)[C@@H](NC(=O)OC(C)(C)C)C(C)(C)C)C(=O)NS(=O)(=O)CC1CCC1	BMS	-	IC50	-	<0.5 µM
C=CC1CC1(NC(=O)[C@@H]1C[C@@H](OC(=O)NCc2ccccc2Cl)CN1C(=O)[C@@H](NC(=O)OC(C)(C)C)C(C)(C)C)C(=O)NS(=O)(=O)C1CC1	BMS/H77C/J416S	-	IC50	-	<0.1 µM
C=C[C@@H]1C[C@]1(NC(=O)[C@@H]1C[C@@H](Oc2cc(-c3ccccc3)nc3cc(OC)ccc23)CN1C(=O)[C@@H](NC(=O)OC(C)(C)C)C(C)(C)C)C(=O)NS(=O)(=O)c1ccc(F)cc1	BMS	-	IC50	-	<0.05 µM
C=CC1CC1(NC(=O)[C@@H]1C[C@@H](OC(=O)Nc2ccccc2-c2ccc(C)o2)CN1C(=O)[C@@H](NC(=O)OC(C)(C)C)C(C)(C)C)C(=O)NS(=O)(=O)C1CC1	BMS/H77C/J416S	-	IC50	-	<0.1 µM
C=C[C@@H]1C[C@]1(NC(=O)[C@@H]1C[C@@H](Oc2cc(-c3ccccc3)nc3cc(OC)ccc23)CN1C(=O)[C@@H](NC(=O)OC(C)(C)C)C(C)(C)C)C(=O)NS(=O)(=O)c1ccc(F)c(Cl)c1	BMS	-	IC50	-	<0.05 µM
C=C[C@H]1C[C@@]1(NC(=O)[C@@H]1C[C@@H](Oc2cc(-c3ccccc3)nc3cc(OC)ccc23)CN1C(=O)[C@@H](NC(=O)OC(C)(C)C)C(C)(C)C)C(=O)NS(=O)(=O)C1(Cl)CC1	BMS	-	IC50	-	<0.05 µM
C=CC1CC1(NC(=O)[C@@H]1C[C@@H](OC(=O)Nc2ccccc2C)CN1C(=O)[C@@H](NC(=O)OC(C)(C)C)C(C)(C)C)C(=O)NS(=O)(=O)C1CC1	BMS/H77C/J416S	-	IC50	-	0.1–1 µM
O=C(Nc1ccc(Oc2ccccc2)cc1)c1c(O)cc(O)c([N+](=O)[O-])c1O	-	100 µg/mL	inhibition	HPLC	100%
C=C[C@H]1C[C@@]1(NC(=O)[C@@H]1C[C@@H](Oc2cc(-c3ccccc3)nc3cc(OC)ccc23)CN1C(=O)[C@@H](NC(=O)C1CCOCC1)C(C)(C)C)C(=O)NS(=O)(=O)C1(Cc2ccccc2)CC1	BMS	-	IC50	-	<0.05 µM
C=C[C@@H]1C[C@]1(NC(=O)[C@@H]1C[C@@H](Oc2cc(-c3ccccc3)nc3cc(OC)ccc23)CN1C(=O)[C@@H](NC(=O)OC(C)(C)C)C(C)C)C(=O)NS(=O)(=O)C(F)(F)F	BMS	-	IC50	-	<0.5 µM
C=CC1CC1(NC(=O)[C@@H]1C[C@@H](OC(=O)Nc2ccccc2-n2cccc2)CN1C(=O)[C@@H](NC(=O)OC(C)(C)C)C(C)(C)C)C(=O)NS(=O)(=O)C1CC1	BMS/H77C/J416S	-	IC50	-	<0.1 µM
Cc1ccc(NC(=O)c2c(O)cc(O)c([N+](=O)[O-])c2O)cc1	-	100 µg/mL	inhibition	HPLC	84.8%
C=C[C@@H]1C[C@]1(NC(=O)[C@@H]1C[C@@H](Oc2cc(-c3ccccc3)nc3cc(OC)ccc23)CN1C(=O)[C@@H](N)C(C)(C)C)C(=O)NS(=O)(=O)C1CC1	BMS	-	IC50	-	<0.05 µM
COc1ccc(NC(=O)c2c(O)cc(O)c([N+](=O)[O-])c2O)cc1OC	-	100 µg/mL	inhibition	HPLC	64.9%
C=CC1CC1(NC(=O)[C@@H]1C[C@@H](OC(=O)Nc2cc(C)nn2-c2ccccc2)CN1C(=O)[C@@H](NC(=O)OC(C)(C)C)C(C)(C)C)C(=O)NS(=O)(=O)C1CC1	BMS/H77C/J416S	-	IC50	-	<0.1 µM
C=C[C@@H]1C[C@]1(NC(=O)[C@@H]1C[C@@H](Oc2cc(-c3ccccc3)nc3cc(OC)ccc23)CN1C(=O)[C@@H](NC(=O)OC(C)(C)C)C(C)(C)C)C(=O)NS(=O)(=O)c1ccccc1Cl	BMS	-	IC50	-	<0.05 µM
C=CC1CC1(NC(=O)[C@@H]1C[C@@H](OC(=O)Nc2c(Cl)cccc2Cl)CN1C(=O)[C@@H](NC(=O)OC(C)(C)C)C(C)(C)C)C(=O)NS(=O)(=O)C1CC1	BMS/H77C/J416S	-	IC50	-	0.1–1 µM
C=C[C@H]1C[C@@]1(NC(=O)[C@@H]1C[C@@H](Oc2cc(-c3ccccc3)nc3cc(OC)ccc23)CN1C(=O)[C@@H](NC(=O)OC(C)(C)C)C(C)(C)C)C(=O)NS(=O)(=O)C1(CC2CC2)CC1	BMS	-	IC50	-	<0.05 µM
CCCCCCCNC(=O)c1c(O)cc(O)c([N+](=O)[O-])c1O	-	-	IC50	HPLC	31.7 µg/mL
C=CC1C[C@@]1(NC(=O)[C@@H]1C[C@@H](Oc2cc(-c3ccccc3)nc3cc(OC)ccc23)CN1C(=O)[C@@H](NC(=O)OCC(C)(C)C)C(C)(C)C)C(=O)NS(=O)(=O)C1(Cc2ccccc2)CC1	BMS	-	IC50	-	<0.05 µM
C=CC1CC1(NC(=O)[C@@H]1C[C@@H](Oc2cc(-c3ccccc3)nc3cc(OC)ccc23)CN1C(=O)[C@H](CC1CCCCC1)NC(=O)OC(C)(C)C)C(=O)NS(=O)(=O)C(F)(F)F	BMS	-	IC50	-	<5 µM

3 of the rows above, restated:

SMILES	strain or isolate	dose	read-out	method	value
C=C[C@H]1C[C@@]1(NC(=O)[C@@H]1C[C@@H](Oc2cc(C3CC3)nc3cc(OC)ccc23)CN1C(=O)[C@@H](NC(=O)OC(C)(C)C)C(C)(C)C)C(=O)NS(=O)(=O)C1(CC2CC2)CC1	BMS	-	IC50	-	<0.05 µM
C=C[C@@H]1C[C@]1(NC(=O)[C@@H]1C[C@@H](Oc2cc(-c3ccccc3)nc3cc(OC)ccc23)CN1C(=O)[C@@H](NC(=O)OC(C)(C)C)C(C)C)C(=O)NS(=O)(=O)C(F)(F)F	BMS	-	IC50	-	<0.5 µM
C=C[C@@H]1C[C@]1(NC(=O)[C@@H]1C[C@@H](Oc2cc(-c3ccccc3)nc3cc(OC)ccc23)CN1C(=O)[C@@H](NC(=O)OC(C)(C)C)C(C)(C)C)C(=O)NS(=O)(=O)c1ccc(F)cc1	BMS	-	IC50	-	<0.05 µM